System: DENV-2 NGC
Test: Antiviral activity against DENV-2 NGC in Vero-B cells (viral RNA load by RT-qPCR)
Assay type: cell-based, Dengue virus
Settings: DENV-2 in Vero-B cells (Table 3); ratio CC50 / EC50

SMILES	SI
CC(=O)Nc1cccc(NC(C(=O)c2c[nH]c3ccccc23)c2ccccc2)c1 (stereo not drawn) [CPD-174]	6
COc1cccc(NC(C(=O)c2cn(CCO)c3ccccc23)c2ccccc2)c1 (stereo not drawn) [CPD-104]	186
COc1cccc(NC(C(=O)c2c[nH]c3ccccc23)c2ccco2)c1 (stereo not drawn) [CPD-023]	53
COc1cccc(NC(C(=O)c2c[nH]c3ccccc23)c2ccsc2)c1 (stereo not drawn) [CPD-027]	111
COc1cccc(NC(C(=O)c2c[nH]c3c(Cl)cccc23)c2ccccc2)c1 (stereo not drawn) [CPD-084]	>4185
COc1cccc(NC(C(=O)c2nn(C)c3cc(OC)ccc23)c2ccccc2)c1 (stereo not drawn) [CPD-266]	>2222
COc1cc(NC(C(=O)c2c[nH]c3ccccc23)c2ccccc2)cc(OC)n1 (stereo not drawn) [CPD-319]	172
COc1cccc(NC(C(=O)c2nn(C)c3ccccc23)c2cnc(OC)cn2)c1 (stereo not drawn) [CPD-272]	>263
COc1cccc(NC(C(=O)c2c[nH]c3ccc(CO)cc23)c2ccccc2)c1 (stereo not drawn) [CPD-219]	166
COc1cccc(NC(C(=O)c2c[nH]c3cnccc23)c2ccccc2)c1 (stereo not drawn) [CPD-200]	24
O=C(c1c[nH]c2ccccc12)C(Nc1cccc(F)c1)c1ccccc1 (stereo not drawn) [CPD-008]	5
COc1cc(NC(C(=O)c2c[nH]c3ccccc23)c2ccccc2)ccn1 (stereo not drawn) [CPD-045]	>2183
COc1cc(NC(C(=O)c2c[nH]c3ccc(F)cc23)c2ccccc2)cc(OCCO)c1 (stereo not drawn) [CPD-355]	1511
COc1cccc(NC(C(=O)c2c[nH]c3cc(C#N)ccc23)c2ccccc2)c1 (stereo not drawn) [CPD-094]	77
COc1cc(CO)cc(NC(C(=O)c2c[nH]c3cc(F)ccc23)c2cccnc2)c1 (stereo not drawn) [CPD-344]	1054
COc1cc(NC(C(=O)c2csc3ccccc23)c2cn3ccccc3n2)ccn1 (stereo not drawn) [CPD-199]	>4
COc1cc(NC(C(=O)c2c[nH]c3cccc(CCCO)c23)c2ccccc2)cc(OC)c1 (stereo not drawn) [CPD-357]	40
COc1cc(CO)cc(NC(C(=O)c2c[nH]c3ccccc23)c2cnc(OC)cn2)c1 (stereo not drawn) [CPD-288]	620
COc1cc(NC(C(=O)c2c[nH]c3ncc(F)cc23)c2ccccc2)cc(OC)c1 (stereo not drawn) [CPD-234]	319
COc1cccc(NC(C(=O)c2n[nH]c3ccccc23)c2ccccc2)c1 (stereo not drawn) [CPD-198]	119
COc1cccc(NC(C(=O)c2c[nH]c3cc(F)ccc23)c2ccc(OC)nc2)c1 (stereo not drawn) [CPD-213]	256
COc1cc(CO)cc(NC(C(=O)c2c[nH]c3ccccc23)c2cc3ccccn3n2)c1 (stereo not drawn) [CPD-289]	1150

SMILES	SI
COc1cncc(NC(C(=O)c2c[nH]c3ccccc23)c2cccnc2)n1 (stereo not drawn) [CPD-280]	>179
COc1cc(CO)cc(NC(C(=O)c2c[nH]c3ccccc23)c2ccc(F)nc2)c1 (stereo not drawn) [CPD-333]	2078
COc1cc(NC(C(=O)c2c[nH]c3ccccc23)c2cccnc2)cc(OCCO)c1 (stereo not drawn) [CPD-343]	>637
COc1cccc(NC(C(=O)c2c[nH]c3cc(C)ccc23)c2ccccc2)c1 (stereo not drawn) [CPD-122]	785
COc1cccc(NC(C(=O)c2cn(CCN3CCOCC3)c3ccccc23)c2ccccc2)c1 (stereo not drawn) [CPD-216]	>127
COc1cccc(NC(C(=O)c2csc3c2CCN(C)C3)c2ccccc2)c1 (stereo not drawn) [CPD-202]	12
COc1cccc(NC(C(=O)c2c[nH]c3ccccc23)c2ccc(C#N)nc2)c1 (stereo not drawn) [CPD-314]	240
O=C(c1c[nH]c2ccccc12)C(Nc1cccc(Cl)c1)c1ccccc1 (stereo not drawn) [CPD-006]	8
COc1cc(NC(C(=O)c2nn(C)c3ccccc23)c2cccnc2)cc(OC)c1 (stereo not drawn) [CPD-279]	>682
COc1cc(NC(C(=O)c2c[nH]c3c(CO)cccc23)c2ccccc2)cc(OC)c1 (stereo not drawn) [CPD-362]	470
COc1cccc(NC(C(=O)c2c[nH]c3ccccc23)c2cncc(F)c2)c1 (stereo not drawn) [CPD-321]	310
COc1cc(NC(C(=O)c2cn(CCCO)c3ccccc23)c2ccccc2)cc(OC)c1 (stereo not drawn) [CPD-210]	68
COc1cccc(NC(C(=O)c2c[nH]c3ccccc23)c2ccccc2C)c1 (stereo not drawn) [CPD-348]	151
COc1cccc(NC(C(=O)c2cn(S(C)(=O)=O)c3ccccc23)c2ccccc2)c1 (stereo not drawn) [CPD-111]	>263
COc1cccc(NC(C(=O)c2cn(CC(=O)O)c3ccccc23)c2ccccc2)c1 (stereo not drawn) [CPD-106]	>13
O=C(c1c[nH]c2ccccc12)C(Nc1ccc2nccnc2c1)c1ccccc1 (stereo not drawn) [CPD-050]	36
COc1cccc(NC(C(=O)c2c[nH]c3ccccc23)c2cc3ccccn3n2)c1 (stereo not drawn) [CPD-083]	941
COc1cncc(NC(C(=O)c2c[nH]c3cc(F)ccc23)c2ccccc2)n1 (stereo not drawn) [CPD-287]	>303
O=C(c1c[nH]c2ccccc12)C(Nc1cccc(-n2cncn2)c1)c1ccccc1 (stereo not drawn) [CPD-058]	22
COc1cccc(NC(C(=O)c2c[nH]c3ccccc23)c2cccc(C#N)c2)c1 (stereo not drawn) [CPD-041]	29
COc1cccc(NC(C(=O)c2c[nH]c3cc(C(=O)O)ccc23)c2ccccc2)c1 (stereo not drawn) [CPD-135]	>3
O=C(c1c[nH]c2ccccc12)C(Nc1cccc(O)c1)c1ccccc1 (stereo not drawn) [CPD-366]	293

SMILES	SI
COc1cc(NC(C(=O)c2cn(C)c3ccccc23)c2ccccc2)ccn1 (stereo not drawn) [CPD-100]	3
COc1cccc(NC(C(=O)c2c[nH]c3cc(F)ccc23)c2ccccc2)c1 (stereo not drawn) [CPD-123]	337
O=C(c1c[nH]c2ccccc12)C(NC1CCOc2ccccc21)c1ccccc1 (stereo not drawn) [CPD-182]	4
COc1cc(NC(C(=O)c2c[nH]c3cc(Cl)ccc23)c2ccccc2)ccn1 (stereo not drawn) [CPD-073]	32
COc1cc(C)nc(NC(C(=O)c2c[nH]c3ccccc23)c2ccccc2)n1 (stereo not drawn) [CPD-062]	>230
CN(C)C(=O)c1cccc(NC(C(=O)c2c[nH]c3ccccc23)c2ccccc2)c1 (stereo not drawn) [CPD-051]	>51
COc1cc(NC(C(=O)c2cn(C)c3c(CCO)cccc23)c2ccccc2)cc(OC)c1 (stereo not drawn) [CPD-358]	345
CCS(=O)(=O)n1cc(C(=O)C(Nc2cccc(OC)c2)c2ccccc2)c2ccccc21 (stereo not drawn) [CPD-211]	>39
COc1nc(NC(C(=O)c2c[nH]c3ccccc23)c2ccccc2)ns1 (stereo not drawn) [CPD-070]	27
COc1cccc(NC(C(=O)c2c[nH]c3c(Cl)cccc23)c2ccc(C#N)cc2)c1 (stereo not drawn) [CPD-120]	674
COc1cccc(NC(C(=O)c2c[nH]c3cccc(Cl)c23)c2ccccc2)c1 (stereo not drawn) [CPD-053]	774
COc1cccc(NC(C(=O)c2c[nH]c3cc(N4CCOCC4)ccc23)c2ccccc2)c1 (stereo not drawn) [CPD-237]	>84
COc1cccc(NC(C(=O)c2c[nH]c3ccccc23)c2ccc(COCN(C)C)cc2)c1 (stereo not drawn) [CPD-112]	4
COc1cccc(NC(C(=O)c2nn(C)c3ccc(F)cc23)c2ccccc2)c1 (stereo not drawn) [CPD-270]	>1001
COc1cccc(NC(C(=O)c2nn(C)c3ccccc23)c2cc3ccccn3n2)c1 (stereo not drawn) [CPD-273]	>382
COc1cccc(NC(C(=O)c2c[nH]c3cc(O)ccc23)c2ccccc2)c1 (stereo not drawn) [CPD-134]	106
O=C(c1c[nH]c2ccccc12)C(Nc1cccc(C(F)(F)F)c1)c1ccccc1 (stereo not drawn) [CPD-009]	7
COc1cccc(NC(C(=O)c2c[nH]c3ccc(CN(C)C)cc23)c2ccccc2)c1 (stereo not drawn) [CPD-228]	8
COCCn1cc(C(=O)C(Nc2cccc(OC)c2)c2ccccc2)c2ccccc21 (stereo not drawn) [CPD-136]	>545
COc1cncc(NC(C(=O)c2c[nH]c3ccccc23)c2ccccc2)c1 (single isomer, unassigned) [CPD-300]	39
N#Cc1cccc(NC(C(=O)c2c[nH]c3ccccc23)c2ccccc2)c1 (stereo not drawn) [CPD-035]	7
COc1cccc(NC(C(=O)c2cn(C)c3ccccc23)c2cc(C)on2)c1 (stereo not drawn) [CPD-117]	>37

SMILES	SI
COc1cccc(NC(C(=O)c2c[nH]c3ccccc23)c2ccc(C)cc2)c1 (stereo not drawn) [CPD-139]	915
COc1cccc(NC(C(=O)c2c[nH]c3ccccc23)c2ccc(OC)nc2)c1 (stereo not drawn) [CPD-055]	759
O=C(c1c[nH]c2ccccc12)C(NCc1ccccn1)c1ccccc1 (stereo not drawn) [CPD-032]	>2
COc1cncc(NC(C(=O)c2c[nH]c3ccc(F)cc23)c2ccc(OC)nc2)c1 (single isomer, unassigned) [CPD-322]	2855
COc1cncc(NC(C(=O)c2c[nH]c3ccccc23)c2ccccc2)c1 (single isomer, unassigned) [CPD-299]	3136
COc1cccc(NC(C(=O)c2cnc3ccccn23)c2ccccc2)c1 (stereo not drawn) [CPD-196]	>2
CNc1ncc(NC(C(=O)c2c[nH]c3ccccc23)c2ccccc2)cc1OC (stereo not drawn) [CPD-261]	40
COc1cccc(NC(C(=O)c2c[nH]c3ccccc23)c2cnc(OC)cn2)c1 (stereo not drawn) [CPD-249]	553
COc1cccc(NC(C(=O)c2c[nH]c3ccccc23)c2ccc3c(c2)n(C)c(=O)n3C)c1 (stereo not drawn) [CPD-060]	>10
COc1cc(NC(C(=O)c2c[nH]c3ccc(Cl)cc23)c2ccccc2)ccn1 (stereo not drawn) [CPD-099]	7
COc1cc(NC(C(=O)c2c[nH]c3ccc(CCCO)cc23)c2ccccc2)cc(OC)c1 (stereo not drawn) [CPD-353]	582
O=C(c1c[nH]c2ccccc12)C(NCC1COc2ccccc2O1)c1ccccc1 (stereo not drawn) [CPD-190]	7
COc1cc(NC(C(=O)c2c[nH]c3ccccc23)c2cccnc2)ccn1 (stereo not drawn) [CPD-074]	95
COc1cccc(NC(C(=O)c2cn(S(C)(=O)=O)c3ccc(F)cc23)c2ccccc2)c1 (stereo not drawn) [CPD-212]	>260
COc1cccc(NC(C(=O)c2c[nH]c3ccccc23)c2ccc(S(C)(=O)=O)cc2)c1 (stereo not drawn) [CPD-021]	>70
COc1cccc(NC(C(=O)c2cn(CCCO)c3ccccc23)c2ccccc2)c1 (stereo not drawn) [CPD-128]	113
COc1cccc(NC(C(=O)c2nn(C)c3cc(C#N)ccc23)c2ccccc2)c1 (stereo not drawn) [CPD-286]	>120
Cc1cc(NC(C(=O)c2c[nH]c3ccccc23)c2ccccc2)no1 (stereo not drawn) [CPD-022]	6
COc1cccc(NC(C(=O)c2c[nH]c3ccccc23)c2cnn(C)c2)c1 (stereo not drawn) [CPD-042]	>11
COc1cccc(NC(C(=O)c2cn(CCN(C)C)c3ccccc23)c2ccccc2)c1 (stereo not drawn) [CPD-114]	48
COc1cccc(NC(C(=O)c2c[nH]c3c(C)cccc23)c2ccc(OC)nc2)c1 (stereo not drawn) [CPD-332]	527
